Among the data in US20250353853A1, “FLAVIVIRUS INHIBITORS” (IRBM S.P.A., priority 2022, published 2025) are IC50 values, retold here.

The pIC50 is the IC50 on a negative log10 scale, so that one unit is a factor of ten.

pIC50: −log10 of the molar value.

This assay addresses DEN2V NS2B-G4SG4-NS3 serine protease (Dengue virus type 2 (DENV-2), UniProt Q91H74). Description: DEN2V Protease Inhibition Assay.

In the case of `NCc1ccccc1-c1ccc(C[n+]2cc([N-]C(=O)Nc3cccc(C(F)(F)F)c3)on2)nc1` [Example 121, (3-((5-(2-(aminomethyl)phenyl)pyridin-2-yl)methyl)-1,2,3-oxadiazol-3-ium-5-yl)((3-(trifluoromethyl)phenyl)carbamoyl)amide], the negative-log IC50 (pIC50) is 4.70 to 6.00.
